PubChem BioAssay AID1224833 | University of Georgia, 2016

Assay: 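Host factors restraining rotavirus as candidate antiviral genes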 (primary screen)
Cells: monkey MA104 kidney cells
Knock-down reagent: siRNA pool against human genes, 50 nM
Duration: 48 h knock-down before infection; read 24 h after infection
Challenge: infection with rotavirus strain RV3 two days after transfection; infectious dose for this stage not given
Measurement: 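z-score of rotavirus antigen signal per well, from a fluorescent immunoassay, relative to non-targeting control wells on the same plate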
Reading the numbers: z-score vs non-targeting control: higher = more rotavirus replication than with non-targeting control
Hit rule: In these data the active calls have z-score vs non-targeting control at about -1 or lower, or at about 1 or higher
Meaning of the calls: active = z-score beyond 1 either way; inactive = z-score within 1 of zero
Shown is one part, drawn at random, of about 12,000 reagents. About 5,600 of them (46%) count as active. 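Active calls cover z-scores past 1 in both directions, so they include lowered as well as raised rotavirus replication.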

{"target": "SSRP1 (structure specific recognition protein 1)", "z-score vs non-targeting control": -1.29, "Outcome": "active"}
{"target": "IRF2BP2 (interferon regulatory factor 2 binding protein 2)", "z-score vs non-targeting control": 1.92, "Outcome": "active"}
{"target": "NF2 (NF2, moesin-ezrin-radixin like (MERLIN) tumor suppressor)", "z-score vs non-targeting control": -1.25, "Outcome": "active"}
{"target": "PRIMPOL (primase and DNA directed polymerase)", "z-score vs non-targeting control": 1.58, "Outcome": "active"}
{"target": "PLGRKT (plasminogen receptor with a C-terminal lysine)", "z-score vs non-targeting control": -2.44, "Outcome": "active"}
{"target": "FAM193B (family with sequence similarity 193 member B)", "z-score vs non-targeting control": -0.79, "Outcome": "inactive"}
{"target": "SUGP2 (SURP and G-patch domain containing 2)", "z-score vs non-targeting control": 1.77, "Outcome": "active"}
{"target": "ITGB3BP (integrin subunit beta 3 binding protein)", "z-score vs non-targeting control": 0.372, "Outcome": "inactive"}
{"target": "ARMCX1 (armadillo repeat containing X-linked 1)", "z-score vs non-targeting control": -0.33, "Outcome": "inactive"}
{"target": "ODF2 (outer dense fiber of sperm tails 2)", "z-score vs non-targeting control": -0.376, "Outcome": "inactive"}
{"target": "PRR18 (proline rich 18)", "z-score vs non-targeting control": -2.79, "Outcome": "active"}
{"target": "CLDN17 (claudin 17)", "z-score vs non-targeting control": -1.13, "Outcome": "active"}
{"target": "TUBGCP3 (tubulin gamma complex component 3)", "z-score vs non-targeting control": -0.332, "Outcome": "inactive"}
{"target": "HOXD1 (homeobox D1)", "z-score vs non-targeting control": -0.848, "Outcome": "inactive"}
{"target": "MAN1A1 (mannosidase alpha class 1A member 1)", "z-score vs non-targeting control": 0.758, "Outcome": "inactive"}
{"target": "CTBP2 (C-terminal binding protein 2)", "z-score vs non-targeting control": -0.607, "Outcome": "inactive"}
{"target": "WNT2 (Wnt family member 2)", "z-score vs non-targeting control": 0.316, "Outcome": "inactive"}
{"target": "TDRD10 (tudor domain containing 10)", "z-score vs non-targeting control": -2.76, "Outcome": "active"}
{"target": "HOXA7 (homeobox A7)", "z-score vs non-targeting control": 1.12, "Outcome": "active"}
{"target": "NEU4 (neuraminidase 4)", "z-score vs non-targeting control": -1.69, "Outcome": "active"}
{"target": "FAU (FAU ubiquitin like and ribosomal protein S30 fusion)", "z-score vs non-targeting control": -0.921, "Outcome": "inactive"}
{"target": "TBP (TATA-box binding protein)", "z-score vs non-targeting control": -1.35, "Outcome": "active"}

A portion from the list above, as a working copy:
{"target": "PLGRKT (plasminogen receptor with a C-terminal lysine)", "z-score vs non-targeting control": -2.44, "Outcome": "active"}
{"target": "FAM193B (family with sequence similarity 193 member B)", "z-score vs non-targeting control": -0.79, "Outcome": "inactive"}
{"target": "SUGP2 (SURP and G-patch domain containing 2)", "z-score vs non-targeting control": 1.77, "Outcome": "active"}
{"target": "ITGB3BP (integrin subunit beta 3 binding protein)", "z-score vs non-targeting control": 0.372, "Outcome": "inactive"}
{"target": "ARMCX1 (armadillo repeat containing X-linked 1)", "z-score vs non-targeting control": -0.33, "Outcome": "inactive"}
{"target": "ODF2 (outer dense fiber of sperm tails 2)", "z-score vs non-targeting control": -0.376, "Outcome": "inactive"}
{"target": "PRR18 (proline rich 18)", "z-score vs non-targeting control": -2.79, "Outcome": "active"}

The listing continues.
{"target": "PTGER3 (prostaglandin E receptor 3)", "z-score vs non-targeting control": -1.17, "Outcome": "active"}
{"target": "NRXN1 (neurexin 1)", "z-score vs non-targeting control": -1.27, "Outcome": "active"}
{"target": "PLEKHA3 (pleckstrin homology domain containing A3)", "z-score vs non-targeting control": 0.569, "Outcome": "inactive"}
{"target": "CDK5RAP3 (CDK5 regulatory subunit associated protein 3)", "z-score vs non-targeting control": -1.26, "Outcome": "active"}
{"target": "TP53BP2 (tumor protein p53 binding protein 2)", "z-score vs non-targeting control": -1.22, "Outcome": "active"}
{"target": "ANAPC16 (anaphase promoting complex subunit 16)", "z-score vs non-targeting control": -0.416, "Outcome": "inactive"}
{"target": "CREG1 (cellular repressor of E1A stimulated genes 1)", "z-score vs non-targeting control": -0.539, "Outcome": "inactive"}
{"target": "CTAG1A (cancer/testis antigen 1A)", "z-score vs non-targeting control": 0.0514, "Outcome": "inactive"}
{"target": "GAL (galanin and GMAP prepropeptide)", "z-score vs non-targeting control": -6.6, "Outcome": "active"}
{"target": "ANKRD34A (ankyrin repeat domain 34A)", "z-score vs non-targeting control": -1.45, "Outcome": "active"}
{"target": "KLHL18 (kelch like family member 18)", "z-score vs non-targeting control": -1.44, "Outcome": "active"}
{"target": "BSPH1 (binder of sperm protein homolog 1)", "z-score vs non-targeting control": -0.489, "Outcome": "inactive"}
{"target": "AP4E1 (adaptor related protein complex 4 subunit epsilon 1)", "z-score vs non-targeting control": -1.67, "Outcome": "active"}
{"target": "BAX (BCL2 associated X, apoptosis regulator)", "z-score vs non-targeting control": -0.838, "Outcome": "inactive"}
{"target": "RPS5 (ribosomal protein S5)", "z-score vs non-targeting control": -0.21, "Outcome": "inactive"}
{"target": "CBR1 (carbonyl reductase 1)", "z-score vs non-targeting control": -1.31, "Outcome": "active"}
{"target": "SCOC (short coiled-coil protein)", "z-score vs non-targeting control": -0.0722, "Outcome": "inactive"}
{"target": "FCRL4 (Fc receptor like 4)", "z-score vs non-targeting control": -0.667, "Outcome": "inactive"}
{"target": "NKX3-2 (NK3 homeobox 2)", "z-score vs non-targeting control": -0.885, "Outcome": "inactive"}
{"target": "MRGPRX4 (MAS related GPR family member X4)", "z-score vs non-targeting control": -0.64, "Outcome": "inactive"}
{"target": "HEXB (hexosaminidase subunit beta)", "z-score vs non-targeting control": 0.891, "Outcome": "inactive"}
{"target": "WDR31 (WD repeat domain 31)", "z-score vs non-targeting control": -3.32, "Outcome": "active"}
{"target": "NHSL3 (NHS like 3)", "z-score vs non-targeting control": -1.96, "Outcome": "active"}
{"target": "NKAIN4 (sodium/potassium transporting ATPase interacting 4)", "z-score vs non-targeting control": 0.142, "Outcome": "inactive"}
{"target": "KBTBD8 (kelch repeat and BTB domain containing 8)", "z-score vs non-targeting control": -1.37, "Outcome": "active"}
